Assay results as given in patent publication US20240391942A1 (priority 2021, published 2024).

How the values were obtained:
[1] = tested on: HRMC cells (COL16A1, COL4A1, CTGF mRNA); assay: RT-qPCR of fibrosis genes in TGF-β-treated renal mesangial cells; details: HRMC cell, 100 nM, TGF-β 1 ng/mL, 24 hours
[2] = tested on: LX-2 cells (ACTA2, COL1A1, TGFβ1 mRNA); assay: RT-qPCR of fibrosis genes in TGF-β-treated hepatic stellate cells; details: LX-2 cell, 100 nM, TGF-β 5 ng/mL, 24 hours
[3] = tested on: NHCF-V cells (ACTA2, CTGF, PAI-1 mRNA); assay: RT-qPCR of fibrosis genes in TGF-β-treated cardiac fibroblasts; details: NHCF-V cell, 100 nM, TGF-β 1 ng/mL, 24 hours
ApoE−/− mice [4] = assay: Body weight and blood glucose of high-fat diet-fed ApoE−/− mice; details: 12 weeks
mouse infarction model = assay: Mouse infarction model, HE and Masson staining; details: infarct mouse model, gavage 0.3 mg/Kg; infarct group 45.47%±[…]
[5] = tested on: OVA-induced BALB/c mouse asthma model; assay: Ovalbumin OVA-induced BALB/c mouse asthma model; details: asthma model mice; for body weight versus G2 model group: day 32
[6] = tested on: myocardial primary fibroblasts; details: 100 nM, anoxia 24 h; control 100%±5.0%, hypoxic group 137%±[…]
ApoE−/− mice [7] = assay: Atherosclerotic plaque formation in high-fat diet-fed ApoE−/− mice (aorta oil red O); details: 0.15 mg/kg gavage once daily, 20 weeks
[8] = tested on: PCNA, MMP9 and Collagen-1 protein expression; assay: Western blotting of PCNA, MMP9 and Collagen-1 in Ang2-treated A7R5 cells; details: Ang2, 50 nM; control 100%, Ang2 220%±22.4% (FIG. 52A)
CCF-STTG1 = details: CCF-STTG1, Cerebral astrocytoma, 72 hours
SUP-B15 = details: SUP-B15, Acute lymphoid B-cell leukemia, 72 hours
KS-1 = details: KS-1, Glioblastoma, 72 hours
CCRF-CEM = details: Acute lymphoid T-cell leukemia, 72 hours

2-mercaptopropyl-PAO
Relative changes in mRNA levels (vs. TGF-β treatment), COL4A1 [1]: −7%
Relative changes in mRNA levels (vs. TGF-β treatment), COL16A1 [1]: −28%
Relative changes in mRNA levels (vs. TGF-β treatment), CTGF [1]: −20%
Relative changes in mRNA levels (vs. TGF-β treatment), ACTA2 [2]: 48%
Relative changes in mRNA levels (vs. TGF-β treatment), COL1A1 [2]: −3%
Relative changes in mRNA levels (vs. TGF-β treatment), TGFB1 [2]: 7%
Relative changes in mRNA levels (vs. TGF-β treatment), ACTA2 [3]: −31%
Relative changes in mRNA levels (vs. TGF-β treatment), CTGF [3]: 7%
Relative changes in mRNA levels (vs. TGF-β treatment), PAI-1 [3]: −19%

O=[As]c1ccccc1 (stereo not drawn)
random, postprandial and fasting blood glucose (ApoE−/− mice [4]): reduced or tended to reduce
Collagen-containing area in heart tissue (Masson staining) (mouse infarction model): 31.30%±1.48%
body weight versus G2 model group ([5]; PAO 0.1 mpk): no significant difference
number of neutrophils in lavage fluid versus G2 model group ([5]; PAO 0.3 mpk): significantly reduced
body weight versus G2 model group ([5]; PAO 0.3 mpk): no significant difference
proliferative capacity of myocardiac fibroblasts (CCK8) [6]: statistically significant difference
area of the plaques in the whole artery versus model group (ApoE−/− mice [7]): smaller
Collagen-1 protein expression (WB) [8]: 136%±8.7%

[2H]c1ccc([As]=O)cc1 (stereo not drawn)
IC50 (CCF-STTG1): 108 nM
IC50 (SUP-B15): 34.2 nM
IC50 (KS-1): 43.5 nM
IC50 (CCRF-CEM): 33.5 nM
